Amino acid sequences for entries named in this document (tags omitted). A change or cut given only in a name is not applied to a line headed by its entry. Residues count along the entry.
UniProt P26663, 1027-1657 R1181K limits assumed: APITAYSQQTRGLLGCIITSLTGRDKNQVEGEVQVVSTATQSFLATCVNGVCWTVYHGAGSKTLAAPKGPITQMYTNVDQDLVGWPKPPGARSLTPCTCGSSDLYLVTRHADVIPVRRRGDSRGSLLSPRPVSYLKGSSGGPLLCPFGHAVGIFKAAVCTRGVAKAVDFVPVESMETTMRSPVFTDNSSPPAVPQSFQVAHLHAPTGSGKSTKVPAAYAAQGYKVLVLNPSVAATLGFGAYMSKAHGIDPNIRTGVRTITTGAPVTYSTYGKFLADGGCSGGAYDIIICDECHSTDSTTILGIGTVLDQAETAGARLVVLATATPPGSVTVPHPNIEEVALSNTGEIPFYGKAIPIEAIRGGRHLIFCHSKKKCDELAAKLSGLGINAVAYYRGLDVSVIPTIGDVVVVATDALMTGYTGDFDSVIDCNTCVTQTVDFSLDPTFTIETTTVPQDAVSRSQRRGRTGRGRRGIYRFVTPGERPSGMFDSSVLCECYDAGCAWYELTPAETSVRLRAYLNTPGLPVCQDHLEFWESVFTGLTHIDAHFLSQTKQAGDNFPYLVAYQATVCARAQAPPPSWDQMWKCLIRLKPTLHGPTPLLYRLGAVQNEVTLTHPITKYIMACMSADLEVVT
UniProt P26663, 1658-1711 partner limits assumed: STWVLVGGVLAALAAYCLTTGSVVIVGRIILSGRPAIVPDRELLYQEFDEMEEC
UniProt Q81258, 1033-1663 limits assumed: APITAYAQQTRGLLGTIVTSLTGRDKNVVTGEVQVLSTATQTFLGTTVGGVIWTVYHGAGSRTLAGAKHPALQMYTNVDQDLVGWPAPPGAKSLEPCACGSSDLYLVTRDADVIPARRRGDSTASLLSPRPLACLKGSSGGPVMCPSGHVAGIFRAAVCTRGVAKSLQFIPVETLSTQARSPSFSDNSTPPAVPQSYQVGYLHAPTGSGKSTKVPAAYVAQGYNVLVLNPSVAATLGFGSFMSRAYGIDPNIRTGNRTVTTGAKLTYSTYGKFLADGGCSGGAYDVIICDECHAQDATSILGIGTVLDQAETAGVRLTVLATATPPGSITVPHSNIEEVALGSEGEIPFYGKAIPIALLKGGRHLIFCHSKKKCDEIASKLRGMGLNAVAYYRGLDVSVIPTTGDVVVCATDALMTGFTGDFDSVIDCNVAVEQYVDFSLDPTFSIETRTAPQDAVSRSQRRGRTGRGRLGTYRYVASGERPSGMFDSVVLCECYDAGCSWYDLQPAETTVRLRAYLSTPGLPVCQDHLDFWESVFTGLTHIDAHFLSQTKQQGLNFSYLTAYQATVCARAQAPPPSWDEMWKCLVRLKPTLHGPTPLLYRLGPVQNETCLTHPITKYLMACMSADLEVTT
UniProt Q81258, 1664-1717 partner limits assumed: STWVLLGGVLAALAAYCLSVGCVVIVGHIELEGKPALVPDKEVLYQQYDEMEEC

In patent publication US9328138B2 (priority 2011, dated 2016):

Columns and labels:
[1] = target: HCV genotype 1b (BK) NS3 modified enzyme with a R155K mutation (Hepatitis C virus genotype 1b, UniProt P26663, R1181K); experiment: HCV NS3 protease time-resolved fluorescence (TRF) assay, genotype 1b R155K; assay type: biochemical; conditions: read-out: Ki 1b R155K, tested form: K salt
Procedure: (§1) The HCV NS3 protease inhibitory activity of the present compounds may be tested using assays known in the art. One such assay is HCV NS3 protease time-resolved fluorescence (TRF) assay as described below and in International Patent Application Publication No. WO2006/102087. Other examples of such assays are described in e.g., International Patent Application Publication No. WO2005/046712. The assay is performed in a final volume of 100 μl in assay buffer containing 50 mM HEPES, pH 7.5, 150 mM NaCl, 15% glycerol, 0.15% Triton X-100, 10 mM DTT, and 0.1% PEG 8000. NS3 protease is pre-incubated with various concentrations of inhibitors in DMSO for 30 minutes. […] Product fluorescence is detected using either a VICTOR V2 or FUSION fluorophotometer (Perkin Elmer Life and Analytical Sciences) with excitation at 340 nm and emission at 615 nm with a 400 μs delay. […]
(§2) The HCV NS3 protease inhibitory activity was measured using the protease time-resolved fluorescence (TRF) assay as described below and in International Patent Application Publication No. WO 2006/102087. […]
(§3) The assay was performed in a final volume of 50 μl in assay buffer containing 50 mM HEPES, pH 7.5, 150 mM NaCl, 15% glycerol, 0.15% TRITON X-100, 10 mM DTT, and 0.1% PEG 8000. […] Product fluorescence is detected using an Envision plate reader (Perkin Elmer) with excitation at 340 nm and emission at 615 nm with a 400 μs delay. […]

[2] = target: HCV NS3 protease genotype 3a (3A-1) (Hepatitis C virus genotype 3a, UniProt Q81258); experiment: HCV NS3 protease time-resolved fluorescence (TRF) assay, genotype 3a; assay type: biochemical; conditions: read-out: Ki 3a, tested form: K salt
Procedure: as §1, §2, §3

C=C[C@@H]1C[C@]1(NC(=O)[C@@H]1C[C@@H]2CN1C(=O)[C@H](C1CCCCC1)NC(=O)O[C@@H]1C[C@H]1CCCCCc1c(nc3ccccc3c1O[C@H]1CCN(C)C[C@H]1F)O2)C(=O)NS(=O)(=O)C1(C)CC1
pKi ([1]; first of two values printed in the cell (not explained)): 10.82 | pKi ([1]; second of two values printed in the cell (not explained)): 10.34 | pKi [2]: 8.64

pKi: −log10 of the molar value. Like-named read-outs stand apart in the source and are kept apart here. The match of structure and compound is tentative.
